Anti-infective test results gathered from many reports (values: NIAID ChemDB through PubChem).

Shared fields: enzyme or target tests

Inhibition is in % at the dose shown (toxicity tests: loss of growth or viability). ICn is the concentration giving n% inhibition. Two numbers with a dash give a range or band. Rows are shuffled and stem from different studies. Blank or dashed fields: not listed here.

smiles,target,endpoint,strain,agent,dose,read by,result
CCOc1ccc2ccccc2c1C(=O)Nc1nnc(NC2CCC2)s1,Polymerase,IC50,,Human cytomegalovirus,,,>25 µM
COc1cccc(C(=O)O/N=C(\N)c2ccc(Cl)cc2Cl)c1,Polymerase,IC50,,Human cytomegalovirus,,scintillation proximity / radiometric,7.7 µM
Nc1nc2c(ncn2CCCCOP(=O)(O)OP(=O)(O)OP(=O)(O)O)c(=O)[nH]1,DNA polymerase,Ki,AD169,Human cytomegalovirus,,,0.23 µM
O=C(Nc1ccc(Cl)cc1)c1ccc2ccccc2c1,HCMV DNA polymerase,IC50,,Human cytomegalovirus,,,>100 µM
O=C(O)CP(=O)(O)O,DNA polymerase,IC50,TYPE 6,Human herpesvirus 6,,,2–5 µg/mL
Nc1nc2c(ncn2CC[C@H](O)COP(=O)(O)OP(=O)(O)OP(=O)(O)O)c(=O)[nH]1,DNA polymerase,IC50,AD169,Human cytomegalovirus,,,112 µM
CC(=O)C(C(C)=O)C1=C(Cl)C(=O)c2ccccc2C1=O,Protease,IC50,,Human cytomegalovirus,,scintillation proximity,1.45 µM
O=C(c1cc2ccccc2cc1O)N1CCN(c2ccc([N+](=O)[O-])cc2)CC1,HCMV DNA polymerase,IC50,,Human cytomegalovirus,,,27.5 µM
N/C(=N\OC(=O)c1ccco1)c1ccc(Cl)cc1Cl,Polymerase,IC50,,Human cytomegalovirus,,scintillation proximity / radiometric,>100 µM
COC(=O)[C@H](C)Nc1nc2ccc(NC(=O)c3ccccn3)c(C)c2c(=O)o1,Protease,IC50,,Human cytomegalovirus,,,0.31 µM
N/C(=N\OC(=O)c1ccc(Cl)cc1)c1ccc(Cl)cc1Cl,Polymerase,IC50,,Human cytomegalovirus,,scintillation proximity / radiometric,>50 µM
Cc1cccc2nc(NC3(C(=O)OC(C)(C)C)CC3)oc(=O)c12,Protease,IC50,,Human cytomegalovirus,,,2.9 µM
COC(=O)CC1=C(Cl)C(=O)c2ccccc2C1=O,Protease,inhibition,,Human cytomegalovirus,150 µM,scintillation proximity,11%
CN=C(NOC(=O)c1ccccc1)c1ccc(Cl)cc1Cl,Polymerase,IC50,,Human cytomegalovirus,,scintillation proximity / radiometric,>100 µM
O=C(/C=C/c1ccccc1Cl)Nc1nnc(NCc2ccc(F)cc2)s1,Polymerase,IC50,,Human cytomegalovirus,,,<25 µM
Nc1nc2c(ncn2CC[C@@H](O)COP(=O)(O)OP(=O)(O)OP(=O)(O)O)c(=O)[nH]1,DNA polymerase,IC50,AD169,Human cytomegalovirus,,,45 µM
O=C(Nc1ccc([N+](=O)[O-])cc1)c1cc2cccc(O)c2cc1O,HCMV DNA polymerase,IC50,,Human cytomegalovirus,,,>100 µM
COc1ccc(C2CC2(Nc2nc3ccc(CNC(=O)CN(C)C)c(C)c3c(=O)o2)C(=O)N2CCCC2)cc1,Protease,IC50,,Human cytomegalovirus,,,1.1 µM
O=C(Nc1nnc(NC2CCCc3ccccc32)s1)c1cc2ccccc2s1,Polymerase,IC50,,Human cytomegalovirus,,,>25 µM
COc1ccccc1/C(N)=N\OC(=O)c1cccc2ccccc12,Polymerase,IC50,,Human cytomegalovirus,,scintillation proximity / radiometric,>100 µM
Cc1cccc2nc(N[C@H](C)c3ccc(I)cc3)oc(=O)c12,Protease,IC50,,Human cytomegalovirus,,,0.23 µM
N/C(=N/OC(=O)c1cccc2ccccc12)c1ccccc1Cl,Polymerase,IC50,,Human cytomegalovirus,,scintillation proximity / radiometric,>100 µM
O=C(NCc1ccc(Cl)cc1)c1c[nH]c2ccc(C#CCO)cc2c1=O,Herpesvirus DNA polymerase,Ki,,Human cytomegalovirus,,,0.95 µM
Nc1nc2c(ncn2COCCOP(=O)(O)OP(=O)(O)OP(=O)(O)O)c(=O)[nH]1,DNA polymerase,Ki,AD169,Human cytomegalovirus,,,0.0076 µM
COc1ccc2cc(O)c(C(=O)Nc3ccc([N+](=O)[O-])cc3)cc2c1,HCMV DNA polymerase,IC50,,Human cytomegalovirus,,,93.7 µM
N/C(=N/OC(=O)c1cccc2ccccc12)c1c(Cl)cc(Cl)cc1Cl,Polymerase,IC50,,Human cytomegalovirus,,scintillation proximity / radiometric,13.7 µM
O=C1C(Cl)=C(C2CCCCCC2)C(=O)c2ccccc21,Protease,IC50,,Human cytomegalovirus,,scintillation proximity,110 µM
COc1ccccc1C(=O)Nc1nnc(NCCc2ccc(S(N)(=O)=O)cc2)s1,Polymerase,IC50,,Human cytomegalovirus,,,>25 µM
N/C(=N\OC(=O)c1cc2ccccc2s1)c1ccc(Cl)cc1Cl,Polymerase,IC50,,Human cytomegalovirus,,scintillation proximity / radiometric,72 µM

4 of the rows above, restated:

smiles,target,endpoint,strain,agent,dose,read by,result
COc1ccccc1C(=O)Nc1nnc(NCCc2ccc(S(N)(=O)=O)cc2)s1,Polymerase,IC50,,Human cytomegalovirus,,,>25 µM
COc1ccc(C2CC2(Nc2nc3ccc(CNC(=O)CN(C)C)c(C)c3c(=O)o2)C(=O)N2CCCC2)cc1,Protease,IC50,,Human cytomegalovirus,,,1.1 µM
O=C(Nc1ccc(Cl)cc1)c1ccc2ccccc2c1,HCMV DNA polymerase,IC50,,Human cytomegalovirus,,,>100 µM
Nc1nc2c(ncn2CC[C@@H](O)COP(=O)(O)OP(=O)(O)OP(=O)(O)O)c(=O)[nH]1,DNA polymerase,IC50,AD169,Human cytomegalovirus,,,45 µM